# Measured values taken from paper PMC4148453.
# How the values were obtained:
# [1] = target: 6His-BfmR (Pseudomonas aeruginosa MPAO1) (UniProt Q9HWS7); assay: DNase I footprinting; conditions: 50 mM acetyl phosphate, 10 mM Tris-Cl pH 8.0, 1 mM DTT, 10% glycerol, 5 mM MgCl2, 10 mM KCl, with 50 mM acetyl phosphate when indicated, footprint at room temperature, recombinant protein, residues 1-246, protein details: N-terminal 6His (thrombin-cleavable, pET28a), probe letters rebuilt from the primers and the genome
# [2] = target: 6His-BfmR (Pseudomonas aeruginosa MPAO1) (UniProt Q9HWS7); assay: EMSA; conditions: 10 mM Tris-Cl pH 8.0, 1 mM DTT, 10% glycerol, 5 mM MgCl2, 10 mM KCl, with 50 mM acetyl phosphate when indicated, EMSA 30 min at 37 C, footprint at room temperature, recombinant protein, residues 1-246, protein details: N-terminal 6His (thrombin-cleavable, pET28a), probe letters rebuilt from the primers and the genome
sequence,measurement,setting,value
"ATGCCGTAGCGGTAGCTTTCGGTCGGTACCGGTGCGGCGGCCTGGGCGGCGAACGCGGGAAGCGCAAGCGCGGCGAGCAGGGTGGTGGCGAGCAGGGTGCGAGTCATGGGGGATCTCCTGGCGGCAGGACCGCGTCGGTGGAAGGCGACATGCCTTCGTCGAGGCCTATTCCAGGCCGCGGAGTTGTCCCGGATGTGTCGCTGGAATGCCCGATTCGTCAGCCGCTGTATCGCCGCTGCCGGCCGATACATGGCCGTACATTCGCCGCCCCGCTCCCGCCGGACGAATCGCGCCCGGCGCCATCCGTCGTCTCCCCCGTTCGCGACAGCGACAACCGGGCTTTTTTGCACGCCCCGGTATTCGCCCCGGCTCCGGATACAGTGCAATACAAACCCCGGCAGGCAAGCGCCGCGGGCGCGGATACACTGCTTGCAAGCACACCAACCGCCACGGGAGCCAGGCAATGGAGCATGTCGATCAC (double strand) [bfmR promoter, 6-FAM]",binding result,[1]; label: 5' 6-FAM on reverse strand,binds
ATGCCGTAGCGGTAGCTTTCGGTCGGTACCGGTGCGGCGGCCTGGGCGGCGAACGCGGGAAGCGCAAGCGCGGCGAGCAGGGTGGTGGCGAGCAGGGTGCGAGTCATGGGGGATCTCCTGGCGGCAGGACCGCGTCGGTGGAAGGCGACATGCCTTCGTCGAGGCCTATTCCAGGCCGCGGAGTTGTCCCGGATGTGTCGCTGGAATGCCCGATTCGTCAGCCGCTGTATCGCCGCTGCCGGCCGATACATGGCCGTACATTCGCCGCCCCGCTCCCGCCGGACGAATCGCGCCCGGCGCCATCCGTCGTCTCCCCCGTTCGCGACAGCGACAACCGGGCTTTTTTGCACGCCCCGGTATTCGCCCCGGCTCCGGATACAGTGCAATACAAACCCCGGCAGGCAAGCGCCGCGGGCGCGGATACACTGCTTGCAAGCACACCAACCGCCACGGGAGCCAGGCAATGGAGCATGTCGATCAC (double strand) [bfmR promoter],binding result,[2],binds
same,Kd,[2]; 50 mM acetyl phosphate,200 nM
GATGTATCGGGGGTGTATCGCCCGACACGTGGATTTGTACGCCGGAGGTATCGAAACCGCGCATGGATACAAAGCGATACGCAATCGAGCGCGGGCATGCCGACGAAGTGCCGGGCATCTCTCACTCCCGCCGGCCCATCTCGGCTACCGTTAGGAGACAGCCACCTGGCCCAGTCTCGAGGTCGAGCCCATCGTGCTGAAACGCATTCCGGTAACCCAGCTTCGCCTCGGTATGTTCGTCCAGAGCCTTTGCGGCTCGTGGCTGGACCACCCGTTCTGGAAAAGAGGTGGCTTCCTGCTCGACAGCCAGGCCGACCTGCAGCGCCTGCGCGAAAGCGCCGTGAAGGAGGTCTGGATCGA (double strand) [PA4107 promoter (4107-P)],binding result,[2],binds
"GTCGACAATGCGCTGAAGTTCGCCGGCGCCGCGCGCCTGGAAGTGGAACGCCGTACCGATGGCGGCACGCGAATCCAGGTGCTGGACAATGGCCCGGGGATTCCCGCCGAGGAACTCGACGAGGTGCTCAAGCCCTTCTACCGGGTGGAAAACTCGCGCAATCGCGACACCGGTGGCACCGGCCTCGGCCTGGCCATCGCGCAGCAGCTGAGCCTGGCCCTCGGCGGCCGCCTGACCCTGGCCAACCGCGCCGGCGGCGGGCTTTGCGCGCGCATCGAGCTGGACCCCTGAGGCGCCCGTACAGAGCGATACATAACCGCCCTCGGCGGACACACTGCGGATAAACCCGCTTGCAACACTCCTGGCCACGGGAAGCGGCGGCACATCGCCGAGCCGCTCCCGGCAACCAGGAGCCCCACCATGACCGTCCCAACCTCTC (double strand) [PA4103 promoter, FAM]",binding result,[1]; label: 5' FAM on reverse strand,binds
